Source: US7635685B2 (priority 2003, dated 2009)

Sequences of proteins named here, by UniProt entry; tags and fusion partners are left off. Residues count along the entry.
UniProt P15917, 34-809 limits assumed: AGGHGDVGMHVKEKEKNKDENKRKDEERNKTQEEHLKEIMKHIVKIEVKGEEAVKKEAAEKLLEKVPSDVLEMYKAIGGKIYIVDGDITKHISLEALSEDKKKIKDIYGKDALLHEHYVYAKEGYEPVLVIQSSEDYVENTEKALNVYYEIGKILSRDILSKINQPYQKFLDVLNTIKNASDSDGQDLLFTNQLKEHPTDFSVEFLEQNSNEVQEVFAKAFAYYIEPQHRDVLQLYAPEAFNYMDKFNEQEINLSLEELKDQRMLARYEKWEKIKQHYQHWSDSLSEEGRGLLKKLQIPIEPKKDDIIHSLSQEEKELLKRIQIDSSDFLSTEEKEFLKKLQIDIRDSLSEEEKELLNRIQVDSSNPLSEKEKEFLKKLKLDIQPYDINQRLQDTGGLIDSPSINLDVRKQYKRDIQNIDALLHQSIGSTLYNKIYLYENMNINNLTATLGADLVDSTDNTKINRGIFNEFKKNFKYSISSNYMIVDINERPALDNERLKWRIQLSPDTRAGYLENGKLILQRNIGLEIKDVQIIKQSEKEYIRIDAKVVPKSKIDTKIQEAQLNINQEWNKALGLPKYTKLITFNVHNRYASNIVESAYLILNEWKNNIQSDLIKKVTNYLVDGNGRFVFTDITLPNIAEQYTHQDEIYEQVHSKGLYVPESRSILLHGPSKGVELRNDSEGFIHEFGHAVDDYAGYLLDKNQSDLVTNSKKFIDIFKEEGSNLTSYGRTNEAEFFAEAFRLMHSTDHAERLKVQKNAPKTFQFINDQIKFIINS

Target: anthrax lethal factor (LF) (Bacillus anthracis, UniProt P15917)
Experiment: in vitro fluorescent assay of inhibition of LF protease activity
[1] = read-out: Ki High salt, high salt: 10 mM potassium HEPES pH 7.4, 150 mM KCl, LF about 33 nM, without BSA
[2] = read-out: Ki Low salt, low salt: 10 mM potassium HEPES pH 7.4, LF about 33 nM, without BSA

Compound: NCC1O[C@H](OC2C(O)[C@H](OC3C(O)[C@H](N)CC(N)[C@H]3O[C@H]3OC(CN)[C@@H](O)C(O)C3N)O[C@@H]2CO[C@@H]2OC(CO)[C@@H](O)C(O)C2O)C(N)C(O)[C@@H]1O (some centres unmarked) [Compound XII]
- Ki [1]: 125 µM
- Ki [2]: 0.023 µM

Compound: NCC1O[C@H](O[C@@H]2C(N)C[C@@H](N)C(O)[C@H]2O[C@@H]2O[C@H](CS[C@@H]3O[C@H](CO)[C@H](O)C3O)[C@H](O[C@H]3O[C@@H](CN)[C@@H](O)C(O)C3N)C2O)C(N)[C@@H](O)[C@@H]1O (some centres unmarked) [Compound XI]
- Ki [1]: 81 µM
- Ki [2]: 0.052 µM

Compound: neomycin B
- change of binding to LF by addition of BSA (0.1 mg/mL BSA, low salt): not significantly affected
- shift of Ki towards higher concentrations on increasing ionic strength (from 0 to 150 mM KCl): about 1500 fold
- apparent Ki value for LF in library screen (library of approximately 3000 compounds): low nM concentration range
- Ki (read-out: Ki High salt, in the presence of BSA (in parentheses), high salt, 150 mM KCl, 0.1 mg/mL BSA): 64 µM
- Ki [1]: 59 µM
- Ki (read-out: Ki Low salt, in the presence of BSA (in parentheses), low salt, 0.1 mg/mL BSA): 0.034 µM
- Ki [2]: 0.037 µM

Like-named read-outs stand apart in the source and are kept apart here.
